Data taken from article PMC5691071.

The chains behind the UniProt entries cited, without tags or fusion partners. Residues count along the entry.
UniProt O42275, 24-633: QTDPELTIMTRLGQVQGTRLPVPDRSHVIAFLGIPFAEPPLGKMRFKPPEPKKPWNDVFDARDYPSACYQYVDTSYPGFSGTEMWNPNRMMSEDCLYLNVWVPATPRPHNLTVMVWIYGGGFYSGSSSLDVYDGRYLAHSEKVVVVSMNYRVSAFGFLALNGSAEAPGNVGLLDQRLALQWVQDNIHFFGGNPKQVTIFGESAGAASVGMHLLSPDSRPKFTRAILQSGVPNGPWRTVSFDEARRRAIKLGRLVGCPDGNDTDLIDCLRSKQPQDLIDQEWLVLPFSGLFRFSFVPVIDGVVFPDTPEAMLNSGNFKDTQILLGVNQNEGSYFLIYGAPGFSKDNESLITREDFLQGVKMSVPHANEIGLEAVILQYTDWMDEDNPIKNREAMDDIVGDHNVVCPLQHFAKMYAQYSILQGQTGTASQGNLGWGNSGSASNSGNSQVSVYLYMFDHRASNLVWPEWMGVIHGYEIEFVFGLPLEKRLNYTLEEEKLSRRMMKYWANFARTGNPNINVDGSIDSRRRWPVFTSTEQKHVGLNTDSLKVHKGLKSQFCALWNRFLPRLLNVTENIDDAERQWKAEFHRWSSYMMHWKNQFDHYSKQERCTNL

Target: acetylcholinesterase (AChE) (UniProt O42275)
Test: cited
Conditions: Nanopore: 100 mM KCl Tris-EDTA, pH 8, 45 min incubation; commercial protein; single-stranded DNA

## GGTTGACTGTAGCTCTGGCAGACGTAGTGTGAAGGTACC [AChE aptamer 39-mer]
  pKd: 10.85

pKd: −log10 of the molar value. Construct, isoform or probe ends are uncertain for at least one entry.
